Compound potency records, mixed from different reports. Data source: NIAID ChemDB in PubChem.

Common to all: whole-cell or culture tests; agent: Cytomegalovirus

Rows are shuffled and stem from different studies.

structure,strain,cells,read by,endpoint,tested at,value
Cc1cn([C@@H]2O[C@H](CO)[C@](O)(C(F)(F)F)[C@H]2O)c(=O)[nH]c1=O,AD169,VERO,cytopathic effect,EC50,,>50 µg/mL
Cc1cn([C@H]2C[C@H](O[Si](C)(C)C(C)(C)C)[C@@H](/C=C/C#N)O2)c(=O)[nH]c1=O,AD169,HeLa,,EC50,,10–20 µM
O=S(=O)(O)c1cc(NS(=O)(=O)c2ccc(-c3ccc(S(=O)(=O)Nc4cc(S(=O)(=O)O)c5cccc(S(=O)(=O)O)c5c4)cc3)cc2)cc2c(S(=O)(=O)O)cccc12,AD169,MRC-5,plaque count,EC50,,42 µM
Cc1nc(N2CCC[C@H]2COC(C)C)nc(-n2ccnc2)c1[N+](=O)[O-],,,plaque count,inhibition,0.6 µM,99.9%
Nc1nc2c(ncn2COC(CO)CO)c(=O)[nH]1,,HEL,,inhibition,1 µM,81%
Nc1nc2c(ncn2COC(CO)CO)c(=O)[nH]1,AD169,HFF,hybridisation,inhibition,1 µM,33%
O=C(CCCCCCCCC(=O)Nc1cc(S(=O)(=O)O)cc2cc(S(=O)(=O)O)cc(O)c12)Nc1cc(S(=O)(=O)O)cc2cc(S(=O)(=O)O)cc(O)c12,Isolate T-1082,MRC-5,plaque count,EC50,,18 µM
Cc1nc(N2CCOC[C@@H]2C)nc(-n2ccnc2)c1[N+](=O)[O-],,,plaque count,inhibition,0.4 µM,99.9%
CCCCCCCCCCCCCCCC(=O)Nc1cc(S(=O)(=O)O)cc2cc(S(=O)(=O)O)cc(O)c12,Isolate T-1082,MRC-5,plaque count,EC50,,12 µM
O=c1[nH]c(=O)n([C@H]2C[C@H](O)[C@@H](CO)O2)cc1I,TOWNE,,,MIC,,45 µg/mL
Cc1cc(N2CCN(C)CC2)cn2c(CSCCc3ccccc3)cnc12,DAVIS,,plaque count,EC50,,4 µg/mL
O=C(O)P(=O)(O)O,295,MRC-5,,EC50,,143.2 µM
O=c1ccn([C@@H]2O[C@H](CO)[C@](O)(C(F)(F)F)[C@H]2O)c(=O)[nH]1,DAVIS,VERO,cytopathic effect,EC50,,>50 µg/mL
Cc1ccc(C(=O)Nc2ccc(S(=O)(=O)O)c3cc(S(=O)(=O)O)cc(S(=O)(=O)O)c23)cc1NC(=O)c1cccc(NC(=O)Nc2cccc(C(=O)Nc3cc(C(=O)Nc4ccc(S(=O)(=O)O)c5cc(S(=O)(=O)O)cc(S(=O)(=O)O)c45)ccc3C)c2)c1,AD169,MRC-5,plaque count,EC50,,21 µM

The first 2 rows once more:

Cc1cn([C@@H]2O[C@H](CO)[C@](O)(C(F)(F)F)[C@H]2O)c(=O)[nH]c1=O ; strain: AD169 ; cells: VERO ; read by: cytopathic effect ; endpoint: EC50 ; value: >50 µg/mL
Cc1cn([C@H]2C[C@H](O[Si](C)(C)C(C)(C)C)[C@@H](/C=C/C#N)O2)c(=O)[nH]c1=O ; strain: AD169 ; cells: HeLa ; endpoint: EC50 ; value: 10–20 µM

An empty or dashed field is not shown. ECn is the concentration giving n% inhibition of infection, replication or growth. Inhibition is in % at the dose shown (toxicity tests: loss of growth or viability). a–b is a range or a potency band.